In the NIST ThermoML archive (doi:10.1016/j.jct.2013.10.018):
Numbers after ± are expanded uncertainties.

Test: xn = mol fraction of the nth substance listed
Settings: 101 kPa, Liquid; for speed of sound: Sing-around technique in a fixed-path interferometer; for mass density: Vibrating tube method

CCCCOP(=O)(OCCCC)OCCCC [tributyl phosphate] + CCCCCCCCO
speed of sound (313.15 K, x1 = 0.016): 1293 ± 3 m/s | speed of sound (313.15 K, x1 = 0.032): 1290 ± 3 m/s | speed of sound (313.15 K, x1 = 0.049): 1286 ± 3 m/s | speed of sound (313.15 K, x1 = 0.1): 1277 ± 3 m/s | speed of sound (313.15 K, x1 = 0.2): 1262 ± 3 m/s | speed of sound (313.15 K, x1 = 0.301): 1249 ± 3 m/s | speed of sound (313.15 K, x1 = 0.398): 1240 ± 3 m/s | speed of sound (313.15 K, x1 = 0.502): 1232 ± 3 m/s | speed of sound (313.15 K, x1 = 0.602): 1226 ± 3 m/s | speed of sound (313.15 K, x1 = 0.704): 1222 ± 3 m/s | speed of sound (313.15 K, x1 = 0.803): 1219 ± 3 m/s | speed of sound (313.15 K, x1 = 0.9): 1216 ± 3 m/s | speed of sound (313.15 K, x1 = 0.919): 1216 ± 3 m/s | speed of sound (313.15 K, x1 = 0.946): 1215 ± 3 m/s | speed of sound (313.15 K, x1 = 0.971): 1215 ± 3 m/s | mass density (313.15 K, x1 = 0.016): 815.1 ± 0.5 kg/m3 | mass density (313.15 K, x1 = 0.032): 818.82 ± 0.53 kg/m3 | mass density (313.15 K, x1 = 0.049): 822.77 ± 0.51 kg/m3 | mass density (313.15 K, x1 = 0.1): 833.83 ± 0.48 kg/m3 | mass density (313.15 K, x1 = 0.2): 853.68 ± 0.46 kg/m3 | mass density (313.15 K, x1 = 0.301): 871.75 ± 0.43 kg/m3 | mass density (313.15 K, x1 = 0.398): 887.57 ± 0.4 kg/m3 | mass density (313.15 K, x1 = 0.502): 902.81 ± 0.38 kg/m3 | mass density (313.15 K, x1 = 0.602): 916.33 ± 0.35 kg/m3 | mass density (313.15 K, x1 = 0.704): 928.84 ± 0.34 kg/m3 | mass density (313.15 K, x1 = 0.803): 940.04 ± 0.32 kg/m3 | mass density (313.15 K, x1 = 0.9): 950.19 ± 0.31 kg/m3 | mass density (313.15 K, x1 = 0.919): 952.06 ± 0.31 kg/m3 | mass density (313.15 K, x1 = 0.946): 954.75 ± 0.31 kg/m3 | mass density (313.15 K, x1 = 0.971): 957.19 ± 0.3 kg/m3 | mass density (313.15 K, x1 = 1): 959.84 ± 0.23 kg/m3 | speed of sound (318.15 K, x1 = 0.016): 1277 ± 3 m/s | speed of sound (318.15 K, x1 = 0.032): 1273 ± 3 m/s | speed of sound (318.15 K, x1 = 0.049): 1270 ± 3 m/s | speed of sound (318.15 K, x1 = 0.1): 1260 ± 3 m/s | speed of sound (318.15 K, x1 = 0.2): 1245 ± 3 m/s | speed of sound (318.15 K, x1 = 0.301): 1233 ± 3 m/s | speed of sound (318.15 K, x1 = 0.398): 1223 ± 3 m/s | speed of sound (318.15 K, x1 = 0.502): 1216 ± 3 m/s | speed of sound (318.15 K, x1 = 0.602): 1210 ± 3 m/s | speed of sound (318.15 K, x1 = 0.704): 1206 ± 3 m/s | speed of sound (318.15 K, x1 = 0.803): 1202 ± 3 m/s | speed of sound (318.15 K, x1 = 0.9): 1200 ± 3 m/s | speed of sound (318.15 K, x1 = 0.919): 1199 ± 3 m/s | speed of sound (318.15 K, x1 = 0.946): 1199 ± 3 m/s | speed of sound (318.15 K, x1 = 0.971): 1198 ± 3 m/s | mass density (318.15 K, x1 = 0.016): 811.54 ± 0.54 kg/m3 | mass density (318.15 K, x1 = 0.032): 815.24 ± 0.53 kg/m3 | mass density (318.15 K, x1 = 0.049): 819.16 ± 0.51 kg/m3 | mass density (318.15 K, x1 = 0.1): 830.17 ± 0.48 kg/m3 | mass density (318.15 K, x1 = 0.2): 849.91 ± 0.45 kg/m3 | mass density (318.15 K, x1 = 0.301): 867.88 ± 0.42 kg/m3 | mass density (318.15 K, x1 = 0.398): 883.61 ± 0.4 kg/m3 | mass density (318.15 K, x1 = 0.502): 898.78 ± 0.37 kg/m3 | mass density (318.15 K, x1 = 0.602): 912.23 ± 0.35 kg/m3 | mass density (318.15 K, x1 = 0.704): 924.68 ± 0.34 kg/m3 | mass density (318.15 K, x1 = 0.803): 935.82 ± 0.32 kg/m3 | mass density (318.15 K, x1 = 0.9): 945.92 ± 0.31 kg/m3 | mass density (318.15 K, x1 = 0.919): 947.78 ± 0.31 kg/m3 | mass density (318.15 K, x1 = 0.946): 950.45 ± 0.31 kg/m3 | mass density (318.15 K, x1 = 0.971): 952.88 ± 0.3 kg/m3 | mass density (318.15 K, x1 = 1): 955.52 ± 0.23 kg/m3 | speed of sound (323.15 K, x1 = 0.016): 1260 ± 3 m/s | speed of sound (323.15 K, x1 = 0.032): 1257 ± 3 m/s | speed of sound (323.15 K, x1 = 0.049): 1253 ± 3 m/s | speed of sound (323.15 K, x1 = 0.1): 1244 ± 3 m/s | speed of sound (323.15 K, x1 = 0.2): 1229 ± 3 m/s | speed of sound (323.15 K, x1 = 0.301): 1216 ± 3 m/s | speed of sound (323.15 K, x1 = 0.398): 1207 ± 3 m/s | speed of sound (323.15 K, x1 = 0.502): 1199 ± 3 m/s | speed of sound (323.15 K, x1 = 0.602): 1194 ± 3 m/s | speed of sound (323.15 K, x1 = 0.704): 1188 ± 3 m/s | speed of sound (323.15 K, x1 = 0.803): 1186 ± 3 m/s | speed of sound (323.15 K, x1 = 0.9): 1183 ± 3 m/s | speed of sound (323.15 K, x1 = 0.919): 1183 ± 3 m/s | speed of sound (323.15 K, x1 = 0.946): 1182 ± 3 m/s | speed of sound (323.15 K, x1 = 0.971): 1182 ± 3 m/s | mass density (323.15 K, x1 = 0.016): 807.94 ± 0.54 kg/m3 | mass density (323.15 K, x1 = 0.032): 811.63 ± 0.53 kg/m3 | mass density (323.15 K, x1 = 0.049): 815.54 ± 0.51 kg/m3 | mass density (323.15 K, x1 = 0.1): 826.49 ± 0.48 kg/m3 | mass density (323.15 K, x1 = 0.2): 846.12 ± 0.45 kg/m3 | mass density (323.15 K, x1 = 0.301): 864 ± 1 kg/m3 | mass density (323.15 K, x1 = 0.398): 879.65 ± 0.4 kg/m3 | mass density (323.15 K, x1 = 0.502): 894.74 ± 0.37 kg/m3 | mass density (323.15 K, x1 = 0.602): 908.12 ± 0.35 kg/m3 | mass density (323.15 K, x1 = 0.704): 920.51 ± 0.34 kg/m3 | mass density (323.15 K, x1 = 0.803): 931.6 ± 0.3 kg/m3 | mass density (323.15 K, x1 = 0.9): 941.65 ± 0.31 kg/m3 | mass density (323.15 K, x1 = 0.919): 943.5 ± 0.3 kg/m3 | mass density (323.15 K, x1 = 0.946): 946.15 ± 0.3 kg/m3 | mass density (323.15 K, x1 = 0.971): 948.58 ± 0.3 kg/m3 | mass density (323.15 K, x1 = 1): 951.2 ± 0.23 kg/m3
